Anti-infective test results gathered from many reports (values: NIAID ChemDB through PubChem).

All rows: host cell toxicity; measure: CC50

CCn is the concentration with n% toxicity to the cells. An empty or dashed field is not shown. Lines come from different laboratories, so protocols vary.

| compound | method | cells | value |
|---|---|---|---|
| O=C(OCc1ccccc1)N1OCCC1n1cc(COCc2ccccc2)c(=O)[nH]c1=O | MTS | MOLT-3 | >1000 µM |
| N#Cc1nc2c(-c3nc4ccccc4[nH]3)c(N)n(Cc3ccc4c(c3)OCO4)c2nc1C#N | resazurin / fluorescence | L6 rat skeletal myoblasts | 53 µM |
| O=C(NCCc1ccc2c(n1)NCCC2)Nc1ccc(F)c(F)c1 | - | PBMC | 6.4 µM |
| COC(=O)N[C@H](C(=O)N[C@@H](C)CCC[C@@H](CO)N(C(C)C)S(=O)(=O)c1ccc(CO)cc1)C(c1ccccc1)c1ccccc1 | microscopy | T lymphoid cells | >10 µM |
| COc1cc(NC(=O)NCCc2ccc3c(n2)NCCC3)cc(OC)c1 | - | PBMC | 1.1 µM |
| C=CCOCc1cn(C2CCON2C(=O)OCc2ccccc2)c(=O)[nH]c1=O | MTS | CEM-GFP | 747 µM |
| N#Cc1nc2c(-c3nc4ccccc4[nH]3)c(N)n(Cc3ccc(O)c(O)c3)c2nc1C#N | resazurin / fluorescence | L6 rat skeletal myoblasts | 22 µM |
| O=C(NCCc1cccc(-n2ccnc2)n1)Nc1ccc(OC(F)(F)F)cc1 | - | PBMC | 10.5 µM |
| COc1cc(-c2nnnn2S(=O)(=O)c2ccc(C(C)(C)C)cc2)ccc1OCC(O)(Cn1cncn1)c1ccc(F)cc1F | MTT | CHO-K1 | 67.23 µg/mL |
| COC(=O)N[C@H](C(=O)N[C@H](CCC[C@@H](CO)N(CCC(C)C)S(=O)(=O)c1ccc(N)cc1)C1CC1)C(c1ccccc1)c1ccccc1 | microscopy | T lymphoid cells | >10 µM |
| O=C(NCCc1ccc2c(n1)NCCC2)Nc1c(Cl)cccc1Cl | - | PBMC | 50 µM |
| CN(C(=O)c1ccncc1)c1cc(C(F)(F)F)ccc1N1CCCCC1 | MTS | Huh7/Rep-Feo1b | >30 µM |
| O=C(NCCc1ccc2c(n1)NCCC2)Oc1ccccc1 | - | PBMC | 50 µM |
| CCN(CC)CCCC(C)n1c(N)c(-c2nc3ccccc3s2)c2nc(C#N)c(C#N)nc21 | resazurin / fluorescence | L6 rat skeletal myoblasts | 9 µM |
| O=C(OCc1ccccc1)N1OCCC1n1cc(COCc2cn(-c3ccc(F)cc3)nn2)c(=O)[nH]c1=O | MTS | MOLT-3 | 579 µM |
| C=C(C)[C@@H]1CC[C@]2(C(=O)NCCO)CC[C@@]3(C)C(CCC4[C@@]5(C)CC[C@H](O)C(C)(C)C5CC[C@]43C)C12 | MTT | MOLT-4/8 | 4.81 µM |
| COC(=O)N[C@H](C(=O)NCCC(C)C[C@@H](CO)N(CCC(C)C)S(=O)(=O)c1ccc(C)cc1)C(c1ccccc1)c1ccccc1 | microscopy | T lymphoid cells | >10 µM |
| O=C(OCc1ccccc1)N1OCCC1n1cc(COCc2cn(Cc3ccccc3)nn2)c(=O)[nH]c1=O | MTS | MOLT-3 | 552 µM |
| COc1cccc2c1C(=O)c1c(O)c3c(c(O)c1C2=O)C[C@@](O)(C(=O)CO)C[C@@H]3O[C@H]1C[C@H](N)[C@H](O)[C@H](C)O1 | MTT | V79 | 0.19 µM |
| COc1ccc(-n2cc(COCc3cn(C4CCON4C(=O)OCc4ccccc4)c(=O)[nH]c3=O)nn2)cc1 | MTS | MOLT-3 | 594 µM |
| Cc1cc(=O)oc2cc(OCc3cn(Cc4cc(=O)oc5cc(Cl)ccc45)nn3)ccc12 | MTT | V79 | 61.88 µg/mL |
| O=C(NCCc1ccc2c(n1)NCCC2)Nc1ccc(F)cc1 | - | PBMC | 5.7 µM |
| COc1ccc(CCn2c(N)c(-c3nc4ccccc4[nH]3)c3nc(C#N)c(C#N)nc32)cc1 | resazurin / fluorescence | L6 rat skeletal myoblasts | 174 µM |
| O=c1c2ncn(COC(CO)CO)c2nc2[nH]c(-c3ccc(C(F)(F)F)cc3)cn12 | - | OST TK-/HSV-1 TK+ | 0.0086 µg/mL |
| CC[C@@H](CCC[C@@H](CO)N(CCC(C)C)S(=O)(=O)c1ccc(CO)cc1)NC(=O)[C@@H](NC)C(c1ccccc1)c1ccccc1 | microscopy | T lymphoid cells | >10 µM |
| O=c1c2ncn(COC(CO)CO)c2nc2[nH]c(-c3ccc(F)cc3)cn12 | - | OST TK- | 278 µg/mL |
| CCCCCCCCCCCCCCOC(=O)NC(CCC(=O)O)(CCC(=O)O)CCC(=O)O | - | Huh7-SG1a H77 | >42 µM |
| Cc1nccn1-c1cccc(CCNC(=O)NCc2ccc(Cl)c(Cl)c2)n1 | - | PBMC | 8.6 µM |
| COc1ccnc2[nH]cc(C(=O)C(=O)N3CCN(C(=O)c4ccccc4)C[C@H]3C)c12 | - | SK-N-MC | >225 µM |
| O=c1c2ncn(COCCO)c2nc2[nH]c(-c3ccccc3)c(Cc3ccc(F)cc3)n12 | - | OST TK- | 240 µg/mL |
| Cc1ccc(NC(=O)NCCc2ccc3c(n2)NCCC3)cn1 | - | PBMC | 50 µM |
| Cc1cc(=O)[nH]c2c1ccc1ncc(C(=O)O)c(C)c12 | - | KB | 16 µg/mL |
| N#Cc1nc2c(-c3nc4ccccc4[nH]3)c(N)n(CCc3ccc(N)cc3)c2nc1C#N | resazurin / fluorescence | L6 rat skeletal myoblasts | 158 µM |
| CC(CCC(=O)N[C@@H](Cc1ccc(O)cc1)C(=O)O)C1CCC2C3CCC4C[C@H](O)CCC4(C)C3C[C@H](O)C12C | XTT | VK2/E6E7 | 181 µg/mL |
| CCOc1ccccc1NC(=O)NCCc1ccc2c(n1)NCCC2 | - | PBMC | 3.4 µM |
| Cc1c(-c2ccc(C(F)(F)F)cc2)[nH]c2nc3c(ncn3COCCO)c(=O)n12 | - | OST TK-/HSV-1 TK+ | 0.35 µg/mL |
| COc1cc(-c2nnnn2S(=O)(=O)c2ccc(Br)cc2)ccc1OCC(O)(Cn1cncn1)c1ccc(Cl)cc1Cl | MTT | CHO-K1 | 74.12 µg/mL |
| Cc1ccc(S(=O)(=O)N(CCC(C)C)[C@H](CO)CC(C)CCNC(=O)[C@@H](N)C(c2ccccc2)c2ccccc2)cc1 | microscopy | T lymphoid cells | >10 µM |

Repeating the final 4 entries:

{"compound": "CCOc1ccccc1NC(=O)NCCc1ccc2c(n1)NCCC2", "cells": "PBMC", "value": "3.4 µM"}
{"compound": "Cc1c(-c2ccc(C(F)(F)F)cc2)[nH]c2nc3c(ncn3COCCO)c(=O)n12", "cells": "OST TK-/HSV-1 TK+", "value": "0.35 µg/mL"}
{"compound": "COc1cc(-c2nnnn2S(=O)(=O)c2ccc(Br)cc2)ccc1OCC(O)(Cn1cncn1)c1ccc(Cl)cc1Cl", "method": "MTT", "cells": "CHO-K1", "value": "74.12 µg/mL"}
{"compound": "Cc1ccc(S(=O)(=O)N(CCC(C)C)[C@H](CO)CC(C)CCNC(=O)[C@@H](N)C(c2ccccc2)c2ccccc2)cc1", "method": "microscopy", "cells": "T lymphoid cells", "value": ">10 µM"}